Measured values as given in US9637724B2, “Selective binding of biological targets to solid phase ureides” (AGENCY FOR SCIENCE, TECHNOLOGY AND RESEARCH, priority 2012, dated 2017).

Key:
[1] = test system: Bacteriophage M13; experiment: Co-precipitation of bacteriophage M13 from phage cell culture supernatant with allantoin
Method: Phage cell culture supernatant was co-precipitated by addition of allantoin at a weight to volume ratio of 7%. pH was about 7.0. Conductivity was 20 mS. The virus was recovered by dissolving the allantoin in 50 mM Hepes, 150 mM NaCl, pH 7.0. Phage recovery was about 70%. Greater than 99% of proteins and small molecule contaminants were eliminated with the supernatant.
Example 1 was repeated at pH values of 5.0, 6.0, and 8.0% allantoin.
Example 1 was repeated at NaCl concentrations corresponding to conductivity values of 40, 60, 80, and 100 mS/cm. These salt concentrations correspond with about 400, 600, 800, and 1000 mM NaCl. […] Optimal co-precipitation occurred at 400 mM NaCl. This was interpreted to reflect suppression of mutual electrostatic repulsion among viral particles with the result of supporting higher packing density of the particles on the ureide surface.
Example 1 was repeated with 3%, 5%, and 10% allantoin. Co-precipitation efficiency, as judged by removal from supernatant, was directly correlated with allantoin concentration. Recovery increased from about 31% to 57% to 91% respectively.
Phage cell culture supernatant was precipitated with 7% allantoin at 400 mM NaCl, pH 6.0. The majority of proteins and small molecule contaminants were eliminated with the supernatant. Recovery was estimated to be in excess of 90%. The virus was recovered by dissolving the allantoin in 50 mM Hepes, pH 7.0, then concentrated by ultrafiltration. Purity from the combined process were estimated by analytical anion exchange chromatography to be in excess of 90%; recovery about 80%.
Phage M13 cell culture supernatant was co-precipitated by addition of allantoin at a weight to volume ratio of 5%. pH was about 7.0. Conductivity was about 15 mS. About 60% of the virus was eliminated in the precipitate. The majority of proteins remained in the supernatant.

[2] = Allantoin plus ethacridine treatment of IgG supernatant, Chelex 100 / Macroprep High Q, then protein A
[3] = 1% allantoin, 0.02% ethacridine, Chelex 100 / Macroprep High Q

## NC(=O)NC1NC(=O)NC1=O (centres unmarked) [allantoin]
[1]; 7% allantoin
  NaCl concentration of optimal co-precipitation: 400 mM
[1]; 7% allantoin, 400 mM NaCl, pH 6.0, dissolution and ultrafiltration
  Purity from the combined process by analytical anion exchange chromatography: > 90%
[1]; 20, 40, 60, 80, 100 mS/cm
  Precipitation efficiency as judged by removal of virus from the sample, dependence on conductivity: directly correlated with conductivity
[1]; pH 5.0, 6.0, 7.0, 8.0
  Co-precipitation efficiency as judged by removal from the supernatant, dependence on pH: inversely correlated with pH
[2]; [3]
  Dynamic binding capacity of protein A column loaded with treated sample: 35 mg/mL
  host cell protein contaminants in IgG eluted from protein A: 10 ppm
[2]; treated versus untreated cell culture supernatant
  host cell protein contaminants, times lower than untreated: roughly 80 times
[2]; treated versus untreated sample
  Dynamic capacity higher than column loaded with untreated sample: about 20%
